Results from PubChem BioAssay AID912 (National Center for Advancing Translational Sciences (NCATS), 2007).
Where “and” joins values, the source holds several entries; their conditions need not be identical. Equal values may be shown once. The entries are a selection whose mix differs from that of the whole data set. Inconclusive results are not listed. Calls of active or inactive are those of the source. Calls come from the whole dose curve.

Assay: qHTS Assay for Anthrax Lethal Toxin Internalization; note: nearly all actives have a fitted effect of over 50% in size
Settings: Cells, FRET ratio (460/530)
[1] = at 40 µM (top of the series) unless noted
% is set by controls: 0 for no effect and ±100 for the full control effect.

For O=P1(Nc2ncccn2)COc2ccccc2OC1, the activity change, negative = inhibition [1] was inactive: 10%.
For O=P1(Nc2ccc(Br)cn2)COc2ccccc2OC1, the activity change, negative = inhibition [1] was inactive: -12%.
With Cc1nn(-c2ccccc2)c2c1P(=O)(N1CCOCC1)N(C)C(c1ccccc1)=N2 (centres undefined) the activity change, negative = inhibition [1] was inactive: 11.5%.
In the case of CN(C(=O)Cc1ccc(Cl)c(Cl)c1)[C@@H]1CCCC[C@H]1N1CCCC1, the activity change, negative = inhibition [1] is reported as inactive: -5.67% and inactive: -22% and inactive: -6.25%.
In the case of Cc1nc2ccc3ccccc3c2s1.O=[N+]([O-])c1cc([N+](=O)[O-])c(O)c([N+](=O)[O-])c1, the activity change, negative = inhibition [1] is reported as inactive: -14.2%.
For O=P1(Nc2ccccn2)COc2ccccc2OC1, the activity change, negative = inhibition [1] was inactive: -4%.
In the case of CN(CCCl)Cc1cc(Cl)c(NC2=NCCN2)c(Cl)c1, the activity change, negative = inhibition [1] is reported as inactive: -8.29%.
For Clc1n[nH]nc1-c1nn[nH][15n]1, the activity change, negative = inhibition [1] was inactive: 2.14%.
In the case of O=C(CC(=O)c1ccccc1)O[C@H]1CN2CCC1CC2, the activity change, negative = inhibition [1] is reported as inactive: 11.3% [at 8 µM].
In the case of NS(=O)(=O)Cc1ccc([As](=O)(O)O)cc1, the activity change, negative = inhibition [1] is reported as inactive: -3.73% [at 8 µM].
For Cc1ccc(C)c(NP(C)(=O)Oc2ccccc2)c1 (centres undefined), the activity change, negative = inhibition [1] was inactive: -9.34%.
With CN(C(=O)Cc1ccc(Cl)c(Cl)c1)[C@@H]1CC[C@@]2(CCCO2)C[C@H]1N1CCCC1 the activity change, negative = inhibition [1] was inactive: -9.52%.
In the case of NC(=O)Nc1ccc([As](=O)(O)O)cc1, the activity change, negative = inhibition (at 3.58 µM (top of the series)) is reported as inactive: -9.08% and the activity change, negative = inhibition (at 40 µM (top of the series)) is reported as inactive: -7.57%.
In the case of CCOP1(=S)c2c(C)nn(CCC#N)c2N=C(c2ccc(F)cc2)N1C (centres undefined), the activity change, negative = inhibition [1] is reported as inactive: -9.2%.
With Cc1ccc([N+](=O)[O-])cc1[N+](=O)[O-] the activity change, negative = inhibition [1] was inactive: -6.67%.
With CCOP1(=S)c2c(C)nn(CCC#N)c2N=C(c2ccccc2F)N1C (centres undefined) the activity change, negative = inhibition [1] was inactive: -11%.
For O=[As](O)(O)c1ccc([As](=O)(O)O)cc1, the activity change, negative = inhibition [1] was inactive: -10.2% [at 8 µM].
In the case of Cc1ccc(NP(C)(=O)Oc2ccccc2)c(C)c1 (centres undefined), the activity change, negative = inhibition [1] is reported as inactive: -3.36%.
In the case of COc1ccccc1OP(C)(=O)Nc1ccc(C)cc1 (centres undefined), the activity change, negative = inhibition [1] is reported as inactive: -5.08%.
With O=C(OC1CN2CCC1CC2)C12CC3CC(CC(C3)C1)C2 (centres undefined) the activity change, negative = inhibition [1] was inactive: -18.7%.
For NC(=O)Nc1cc([As](=O)(O)O)cc(I)c1O, the activity change, negative = inhibition [1] was inactive: -6.26% [at 8 µM].
With CCOP(C)(=S)SCC(=O)NC(C)C(=O)O (centres undefined) the activity change, negative = inhibition [1] was inactive: -4.71%.
In the case of COP1(=S)c2c(C)nn(CCC#N)c2N=C(c2ccc(F)cc2)N1C (centres undefined), the activity change, negative = inhibition [1] is reported as inactive: -12.3%.
For O=C(O)[C@@H](O)c1ccc([As](=O)(O)O)cc1, the activity change, negative = inhibition [1] was inactive: 0.818% [at 8 µM].
In the case of O=C(COc1ccccc1)OC1CN2CCC1CC2 (centres undefined), the activity change, negative = inhibition [1] is reported as inactive: -19.2%.
For CP(=O)(NC(=O)Nc1ccccc1)Oc1ccccc1 (centres undefined), the activity change, negative = inhibition [1] was inactive: -3.51%.
With CP(=S)(Nn1cnnc1)Oc1ccccc1 (centres undefined) the activity change, negative = inhibition [1] was inactive: 2.56%.
In the case of N1=C(c2nnc(-c3nn[nH]n3)nn2)NNN1, the activity change, negative = inhibition [1] is reported as inactive: -6% [at 8 µM].
In the case of C/C1=C2N=C(/C=C3N=C(/C(C)=C4\[N-][C@@](C)([C@H]5N=C1[C@@](C)(CCC(=O)NC[C@H](C)OP(=O)([O-])O[C@@H]1[C@H](O)[C@H](n6cnc7cc(C)c(C)cc76)O[C@@H]1CO)[C@@H]5CC(N)=O)[C@](C)(CC(N)=O)[C@H]4CCC(N)=O)[C@@](C)(CC(N)=O)[C@@H]\3CCC(N)=O)C(C)(C)[C@@H]/2CCC(N)=O.[C-]#N.[Co+3], the activity change, negative = inhibition [1] is reported as inactive: 0.989% [at 3.58 µM].
For CN(C(=O)Cc1ccccc1)[C@@H]1CC[C@@]2(CCCO2)C[C@H]1N1CCCC1, the activity change, negative = inhibition [1] was inactive: 7.51%.
For N#[O+].[C-]#N.[C-]#N.[C-]#N.[C-]#N.[C-]#N.[Fe+2].[Na+].[Na+], the activity change, negative = inhibition [1] was inactive: 6.09%.
With COc1ccccc1OP(C)(=O)Nc1c(C)n(C)n(-c2ccccc2)c1=O (centres undefined) the activity change, negative = inhibition [1] was inactive: -8.35%.
With NCC[C@@H](N)CSP(=O)(O)O the activity change, negative = inhibition [1] was inactive: -10.8% [at 8 µM].
In the case of CP(=O)(Nc1ccccn1)Oc1ccccc1 (centres undefined), the activity change, negative = inhibition [1] is reported as inactive: -4.45%.
For O=[N+]([O-])c1ccc(C[As](=O)(O)O)cc1, the activity change, negative = inhibition [1] was inactive: 1.97% [at 8 µM].
With [N-]=[N+]=NCC(O)CN=[N+]=[N-] (centres undefined) the activity change, negative = inhibition [1] was inactive: -4.66% [at 8 µM].
In the case of C(Cc1nn[nH]n1)c1nn[nH]n1, the activity change, negative = inhibition [1] is reported as inactive: 8.03% [at 8 µM].
With CN(C(=O)Cc1ccc(Cl)c(Cl)c1)[C@H]1CCCC[C@@H]1N1CCCC1 the activity change, negative = inhibition [1] was inactive: -14.6% and inactive: -15.4%.
In the case of COc1ccccc1OP(C)(=O)Nc1ccc(C)c(C)c1 (centres undefined), the activity change, negative = inhibition [1] is reported as inactive: -16.4%.
With COC(=O)c1cc2c(s1)N=C(c1ccccc1)N(C)P2(=O)N1CCOCC1 (centres undefined) the activity change, negative = inhibition [1] was inactive: 0.621%.
In the case of Cc1cccc([N+](=O)[O-])c1[N+](=O)[O-], the activity change, negative = inhibition [1] is reported as inactive: 13.4%.
For CCC(C)(OO)OOC(C)(CC)OO (centres undefined), the activity change, negative = inhibition [1] was inactive: -3.33%.
With O=P1(Nc2nc3ccc(Cl)cc3s2)COc2ccccc2O1 (centres undefined) the activity change, negative = inhibition [1] was inactive: -5.87%.
For CP(=O)(Nc1ccccc1F)Oc1ccccc1 (centres undefined), the activity change, negative = inhibition [1] was inactive: 8.63%.
For CP(=O)(Nc1ccc2c(c1)OCCO2)Oc1ccccc1 (centres undefined), the activity change, negative = inhibition [1] was inactive: 16.1%.
In the case of NNC(NN)NN.n1nc(-c2nn[nH]n2)n[nH]1, the activity change, negative = inhibition [1] is reported as inactive: 4.61% [at 8 µM].
For C[C@@H](O)COc1ccc([As](=O)(O)O)cc1N, the activity change, negative = inhibition [1] was inactive: 7.22% [at 8 µM].
In the case of Cc1ccccc1NP(C)(=O)Nc1ccccc1C, the activity change, negative = inhibition [1] is reported as inactive: -7.77%.
With O=P(Nc1nccs1)(c1ccccc1)c1ccccc1 the activity change, negative = inhibition [1] was inactive: 5.91%.
With CCOP(=O)(CC)OCC the activity change, negative = inhibition [1] was inactive: 8.68%.
With c1nnnn1CCn1cnnn1 the activity change, negative = inhibition [1] was inactive: 12.2%.
In the case of CCOP(C)(=S)SCC(=O)NC(C)(CC)C(=O)O (centres undefined), the activity change, negative = inhibition [1] is reported as inactive: 7.68%.
For Cc1ccc([N+](=O)[O-])c([N+](=O)[O-])c1, the activity change, negative = inhibition [1] was inactive: 18.4%.
With Cc1c([N+](=O)[O-])cccc1[N+](=O)[O-] the activity change, negative = inhibition [1] was inactive: 7.01%.
With O=C(OC1CN2CCC1CC2)c1cccc(Cl)c1 (centres undefined) the activity change, negative = inhibition [1] was inactive: -13.3%.
For [N-]=[N+]=Nc1ccc([As](=O)(O)O)cc1, the activity change, negative = inhibition [1] was inactive: -0.571% [at 8 µM].
With Cc1cc([N+](=O)[O-])cc([N+](=O)[O-])c1O the activity change, negative = inhibition [1] was inactive: -3.98%.
For CN(C)CCOC(=O)C(O)(c1ccccc1)C1CCCCC1 (centres undefined), the activity change, negative = inhibition [1] was inactive: -8.26%.
